# Laboratory results as given in patent US20240067634A1, “INHIBITORS OF NEF DOWNMODULATION” (priority 2020, published 2024).
# Tested on: PHA-activated primary human PBMCs
# Test: Toxicity, MTT viability assay
# Details: HIV-1 infected primary T cells; EC50 vs 72 hour MTT, FIG. 4
structure (smiles),measurement,value
"C/C=C/[C@H]1O[C@@](O)([C@@H](C)[C@H](O)[C@H](C)[C@H]2OC(=O)/C(OC)=C/C(C)=C/[C@@H](C)[C@@H](O)[C@@H](CC)[C@@H](O)[C@H](C)C/C(C)=C/C=C/[C@@H]2OC)C[C@@H](O[C@H]2C[C@@H](O)[C@H](OC(N)=O)[C@@H](C)O2)[C@@H]1C [CMA, Concanamycin A]",therapeutic window between effective and toxic doses,> five and five
